According to paper PMC9613470, “Diverse MarR bacterial regulators of auxin catabolism in the plant microbiome” (Nature Microbiology, 2022):

Test system: V. paradoxus CL14
Assay: LC–MS/MS metabolomics on Variovorax IAA degradation
Assay type: cell-based, Variovorax paradoxus CL14
Details: for consumption by V. paradoxus CL14: detected in media controls, LC–MS/MS of cultures in M9 minimal medium; for detection of the metabolite (annotation in name column): all samples; for detection of the isotopologue in the metabolomics data set (note in the name column): 13C6 isotopologue

Row | SMILES | consumption by V. paradoxus CL14 | detection of the isotopologue in the metabolomics data set (note in the name column) | also measured
1 | O=C(O)Cc1c(O)[nH]c2ccccc12 [2-hydroxyindole-3-acetic acid] | completely consumed |  | 
2 | Nc1ccc(C(=O)O)cc1 [4-aminobenzoic acid___13C6] |  |  | detection of the metabolite (annotation in name column): 4-aminobenzoic acid and/or isomer(s) (not detected)
3 | O=C(O)CC1(O)C(=O)Nc2ccccc21 (centres unmarked) [DOAA, dioxindole-3-acetic acid] | completely consumed |  | 
4 | O=C(O)Cc1c[nH]c2ccccc12 [IAA, indole-3-acetic acid] | completely consumed |  | 
5 | Oc1ccccc1O [catechol___12C] |  |  | detection of the metabolite (annotation in name column): catechol (not detected)
6 | O=C(O)C[C@H](NC(=O)Cc1c[nH]c2ccccc12)C(=O)O [indole-3-acetyl-L-aspartic acid (IAAsp)___13C6] |  | indole-3-acetyl-L-aspartic acid (IAAsp) (not detected) | 
7 | O=C(O)CCCc1c[nH]c2ccccc12 [indole-3-butyric acid (IBA)___13C6] |  | indole-3-butyric acid (IBA) (not detected) | 
8 | OCCc1c[nH][13c]2[13cH][13cH][13cH][13cH][13c]12 [indole-3-ethanol___13C6] |  | indole-3-ethanol (not detected) | 
